Reference: ChEMBL document CHEMBL4373711, “Development of 3,5-Dinitrophenyl-Containing 1,2,4-Triazoles and Their Trifluoromethyl Analogues as Highly Efficient Antitubercular Agents Inhibiting Decaprenylphosphoryl-β-d-ribofuranose 2'-Oxidase” (J Med Chem, 2019)

What was measured:
[1] = tested on: Mycobacterium tuberculosis; details: Praha 4
[2] = tested on: Mycobacterium tuberculosis; details: 234/2005

Sequence: GENTAMICIN
- MIC>99 [1]: 0.5 µM
- MIC>99 [2]: 0.25 µM
